PubChem BioAssay AID1259414 | Drosophila RNAi Screening Center, 2018
Assay: 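Host factors increasing or decreasing Wolbachia levels in cultured fly cells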 (primary screen). System: Drosophila JW18 cells infected with Wolbachia. Reagents: long dsRNA against Drosophila genes, 0.25 µg dsRNA per well of a 384-well plate. Time to read-out: 5 days. Conditions: cells persistently infected with Wolbachia before knock-down; no added drug. Measurement: 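Imaged fluorescence in situ signal for Wolbachia 23S rRNA per DAPI-counted host cell, given as a robust z-score within each plate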. Scale: Wolbachia per cell robust z: higher = more Wolbachia per host cell than the plate typical. Active means: 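Hit when robust z is 1.5 or more, or -1.5 or less, in at least two of three replicates; excludes dsRNAs with several or no targets, genes not expressed in JW18 and well A1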.
The deposit covers about 24,000 reagents; shown is a random part of those with a known target gene and a result. Of all reagents, about 1,210 (5%) are marked active. 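Inactive calls also include excluded dsRNAs with several or no targets, genes unexpressed in JW18, and well A1, regardless of score.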 Unmarked entries are inactive. Reagents against one gene are numbered here. A plus sign joins genes that one reagent is predicted to hit.

predicted target | reagent | Wolbachia per cell robust z, rep 1 | Wolbachia per cell robust z, rep 2 | Wolbachia per cell robust z, rep 3
CG14022 | 1 | 0.373 | 0.477 | 0.0824
CG14022 | 2 | 0.576 | 1.36 | 0.357
CG14022 | 3 | -2.11 | -0.432 | 0.212
CG17801 | 1 | 0.751 | -0.118 | -0.17
tbrd-1 | 1 | 0.0976 | -2.71 | -6.12
Naa35 (N(alpha)-acetyltransferase 35) | 1 | 0.574 | 0.363 | 0.776
Naa35 (N(alpha)-acetyltransferase 35) | 2 | 0.71 | 0.798 | 0.475
lncRNA:CR42696 (long non-coding RNA:CR42696) | 1 | -0.131 | 0.00885 | 0.223
btn (buttonless) | 1 | -2.05 | -0.403 | -0.336
CG43366 | 1 | -0.154 | -4.71 | 0.0648
CG43366 | 2 | -3.29 | 0.293 | -0.0289
CG43366 | 3 | 0.304 | 0.402 | -0.261
CG43366 | 4 | 0.581 | 0.369 | 1.08
Atg17 (Autophagy-related 17) | 1 | -1.49 | -1.38 | -1.74
Fer3HCH (Ferritin 3 heavy chain homologue) | 1 | 0.42 | -2.77 | -2.15
Fer3HCH (Ferritin 3 heavy chain homologue) | 2 | -0.15 | -0.493 | -0.339
AIF (Apoptosis inducing factor) | 1 | -0.447 | 0.274 | 0.865
CG7943 | 1 | 0.286 | -0.63 | -0.413
Arpc1 (Actin-related protein 2/3 complex, subunit 1) | 1 | 2.1 | -0.956 | 0.0748
Arpc1 (Actin-related protein 2/3 complex, subunit 1) | 2 | 1.01 | -1.07 | 0.818
shu (shutdown) | 1 | -0.984 | 0.405 | -1.66
shu (shutdown) | 2 | -1.76 (active) | -0.966 | -2.36
mRpS17 (mitochondrial ribosomal protein S17) | 1 | -0.106 | 1.16 | 1.15
Sodh1 (Sorbitol dehydrogenase 1) | 1 | 0.731 | -0.89 | 1.43
Sodh1 (Sorbitol dehydrogenase 1) | 2 | -0.342 | 0.856 | 0.353
Pmvk (Phosphomevalonate kinase) | 1 | 0.0196 | -0.106 | 0.726
CG8136 | 1 | 0.753 | 0.0057 | -0.772
CG8136 | 2 | -0.378 | -1.11 | -0.903
NtR | 1 | -0.307 | -1.07 | -0.606
NtR | 2 | 0.118 | 0.449 | 0.987
CR11235 (pseudo) | 1 | -0.116 | 0.196 | -0.193
CR11235 (pseudo) | 2 | -1.26 | -1.12 | -1.19
Arl8 (ADP ribosylation factor-like 8) | 1 | 0.953 | 0.0272 | -0.348
CG11226 | 1 | -1.11 | -9.63 | -1.32
CG17470 | 1 | 1.16 | -7.33 | 1.33
CG13148 | 1 | -0.16 | -3.27 | 0.0426
pad (poils au dos) | 1 | -3.44 (active) | -7.31 | -0.681
pad (poils au dos) | 2 | 1.27 | 1.3 | -0.912
pad (poils au dos) | 3 | -2.75 | -0.93 | -0.443
CG4306 | 1 | 1.06 | 1.02 | 1.06
CG4306 | 2 | -0.471 | -2.01 | -0.276
dan (distal antenna) | 1 | -0.898 | -0.215 | 1.56
dan (distal antenna) | 2 | 0.818 | 1.42 | 0.655
CG12934 | 1 | -0.864 | 0.0233 | -1.67
CG12934 | 2 | -0.168 | 0.462 | 1.91
CG32686 | 1 | 0.532 | -0.941 | 0.0132
CG32686 | 2 | -1.18 | -1.85 | -0.282
CG13995 | 1 | 0.888 | 0.539 | 0.349
CG13995 | 2 | -0.468 | -0.831 | -0.0676
CG13995 | 3 | 0.707 | -2.33 | -0.179
CG13995 | 4 | 0.166 | -0.297 | -1.28
esn (espinas) | 1 | -1.84 | -1.96 | -1.88
esn (espinas) | 2 | -0.534 | -1.43 | 0.352
esn (espinas) | 3 | 0.489 | -1.25 | -2.38
esn (espinas) | 4 | 0.73 | 0.0471 | -0.448
CG17625 | 1 | 0.0242 | 0.58 | -1.44
CG15861 | 1 | -1.07 | -1.63 | 0.668
CG15861 | 2 | -0.0499 | -0.544 | 0.213
ppk14 (pickpocket 14) | 1 | 0.0155 | -0.646 | -0.479
CG14321 | 1 | 1.37 | 0.182 | 1.08
CG14321 | 2 | 0.491 | 1.23 | -0.112
Lcp4 (Larval cuticle protein 4) | 1 | -0.991 | -0.677 | -2.24
Lcp4 (Larval cuticle protein 4) | 2 | 0.601 | 0.227 | 0.691
PDZ-GEF (PDZ domain-containing guanine nucleotide exchange factor) | 1 | 0.709 | 0.665 | 0.765
CG7766 | 1 | 1.06 | 0.507 | 1.31
CG7766 | 2 | -1.98 | 0.563 | -1.19
alien + CG17906 | 1 | 0.675 | 0.849 | -1.04
alien + CG17906 | 2 | -0.951 | -0.981 | -0.936
CG4743 | 1 | -1.58 (active) | -2.14 | -0.0537
PGRP-LF (Peptidoglycan recognition protein LF) | 1 | 0.0255 | -0.422 | -1.48
en (engrailed) | 1 | 0.27 | -2.83 | 0.486
en (engrailed) | 2 | 0.326 | -3.16 | -1.68
ham (hamlet) | 1 | -8.58 | 0.872 | 0.328
ham (hamlet) | 2 | 0.926 | -0.179 | 1.52
ham (hamlet) | 3 | -0.5 | 1.03 | -1.14
ham (hamlet) | 4 | 0.243 | -0.483 | -1.14
COX7A (Cytochrome c oxidase subunit 7A) | 1 | 1 | -0.0404 | 0.48
CG7631 | 1 | 1.06 | 0.228 | 0.391
CG5107 | 1 | 0.476 | 0.0907 | 0.669
Acp32CD (Accessory gland protein 32CD) | 1 | 0.512 | 0.215 | 0.945
Acp32CD (Accessory gland protein 32CD) | 2 | -0.199 | 0.882 | -0.539
Acp32CD (Accessory gland protein 32CD) | 3 | 1.2 | 1.13 | 0.234
Ist1 | 1 | 1.56 | -1.3 | 0.392
Ist1 | 2 | 1.08 | 0.921 | 0.538
bgcn (benign gonial cell neoplasm) | 1 | 0.882 | 1.22 | 0.674
bgcn (benign gonial cell neoplasm) | 2 | -0.275 | 0.111 | 0.645
lectin-37Db | 1 | -0.451 | -1.15 | 0.214

Copied from the entries so far (11 entries):
predicted target | reagent | Wolbachia per cell robust z, rep 1 | Wolbachia per cell robust z, rep 2 | Wolbachia per cell robust z, rep 3
CG4306 | 1 | 1.06 | 1.02 | 1.06
CG4306 | 2 | -0.471 | -2.01 | -0.276
dan (distal antenna) | 1 | -0.898 | -0.215 | 1.56
dan (distal antenna) | 2 | 0.818 | 1.42 | 0.655
CG12934 | 1 | -0.864 | 0.0233 | -1.67
CG12934 | 2 | -0.168 | 0.462 | 1.91
CG32686 | 1 | 0.532 | -0.941 | 0.0132
CG32686 | 2 | -1.18 | -1.85 | -0.282
CG13995 | 1 | 0.888 | 0.539 | 0.349
CG13995 | 2 | -0.468 | -0.831 | -0.0676
CG13995 | 3 | 0.707 | -2.33 | -0.179
